PubChem BioAssay AID1259414 – Drosophila RNAi Screening Center | 2018
Assay: 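Host factors increasing or decreasing Wolbachia levels in cultured fly cells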 (primary screen). Cells: Drosophila JW18 cells infected with Wolbachia. Knock-down reagent: long dsRNA against Drosophila genes, 0.25 µg dsRNA per well of a 384-well plate. Time to read-out: 5 days. Treatment: cells persistently infected with Wolbachia before knock-down; no added drug. Measured: 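Automated imaging of bacterial rRNA staining divided by host cell count, reported as plate-normalised robust z-score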. Reading the numbers: Wolbachia per cell robust z: higher = more Wolbachia per host cell than the plate typical. Active means: 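Active if absolute robust z reaches 1.5 in two or more of three replicates, leaving out multi- or no-target dsRNAs, genes unexpressed in JW18 and A1 wells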.
The deposit covers about 24,000 reagents; shown is an unselected part of those with a known target gene and a result. In the full data, about 1,210 (5%) got an active call. 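Inactive calls also include excluded dsRNAs with several or no targets, genes unexpressed in JW18, and well A1, regardless of score.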 The numbers tell different reagents against one gene apart. Names joined by + are all predicted targets of the reagent.

Gene	dsRNA no.	Wolbachia per cell robust z, rep 1	Wolbachia per cell robust z, rep 2	Wolbachia per cell robust z, rep 3	Call
PH4alphaPV (prolyl-4-hydroxylase-alpha PV)	1	-0.0057	0.38	0.978	inactive
PH4alphaPV (prolyl-4-hydroxylase-alpha PV)	2	0.365	-0.0602	0.0898	inactive
mod (modulo)	1	0.433	0.348	-1.11	inactive
mod (modulo)	2	0.0655	-1.1	-0.61	inactive
CG9117	1	-0.644	-1.07	-0.388	inactive
toc (toucan)	1	-0.0871	0.0816	0.556	inactive
toc (toucan)	2	-1.66	-1.52	-2.46	active
toc (toucan)	3	-2.06	-0.661	-0.321	inactive
toc (toucan)	4	-0.314	-0.762	-0.264	inactive
CG15136	1	0.248	-2.46	0.00468	inactive
CG6885	1	-0.0987	-0.0774	-2.17	inactive
imd (immune deficiency)	1	-0.886	-0.851	0.621	inactive
imd (immune deficiency)	2	0.00577	-1.08	-0.00055	inactive
Bka (Bekka)	1	0.535	1.48	0.229	inactive
CG6765	1	0.925	0.571	0.916	inactive
CG6765	2	0.666	0.335	1.17	inactive
magu	1	-5.83	-1.82	-6.05	active
Syn1 (Syntrophin-like 1)	1	-0.851	-6.33	1.22	inactive
Syn1 (Syntrophin-like 1)	2	-0.806	0.319	-9.08	inactive
Syn1 (Syntrophin-like 1)	3	0.636	-0.714	-0.894	inactive
POSH (Plenty of SH3s)	1	0.603	0.83	-1.25	inactive
CG13738	1	-1.73	-0.0355	1.12	inactive
CG13738	2	-0.457	0.0776	-1.04	inactive
CG4679	1	0.727	0.575	-2.56	inactive
CG4679	2	0.65	-1.52	0.78	inactive
CG11882	1	0.143	0.545	1.1	inactive
CG11882	2	-0.391	-1.67	-1.31	inactive
fok (fledgling of Klp38B)	1	-2.12	-4.35	-1.5	active
fok (fledgling of Klp38B)	2	-0.339	-1.02	-0.544	inactive
ARY (Aldo-keto reductase on Y)	1	0.543	-1.6	-0.191	inactive
CG34281	1	0.449	0.49	1.02	inactive
CG34281	2	0.551	1.13	1.07	inactive
CG2017	1	0.61	0.16	-0.22	inactive
CG5708	1	-1.39	0.938	0.779	inactive
deltaTry + gammaTry + CG30031	1	-0.744	-3.45	-3.04	inactive
CG11035	1	-0.825	-0.201	-0.555	inactive
CG9269	1	-2.54	0.0721	-1.25	inactive
dlg1 (discs large 1)	1	-2.28	-7.93	2.44	active
dlg1 (discs large 1)	2	0.852	0.999	0.245	inactive
dlg1 (discs large 1)	3	-1.43	-0.0247	-0.129	inactive
dlg1 (discs large 1)	4	-0.599	-0.0299	0.353	inactive
flfl (falafel)	1	-2.83	1.04	-5.51	active
nullo	1	0.529	0.109	-0.159	inactive
nullo	2	0.115	1.03	1.16	inactive
CG10874	1	0.112	0.429	0.757	inactive
CG10874	2	-0.976	-0.704	-1	inactive
CG30265	1	-1.97	-1.65	0.116	inactive
Or30a (Odorant receptor 30a)	1	-1.67	-0.511	-2.19	inactive
unc-104 (uncoordinated-104)	1	0.191	0.903	0.931	inactive
CG12481	1	-1.26	0.529	0.318	inactive
cona (corona)	1	0.00335	0.718	1.34	inactive
CG11381	1	-1.78	1.07	0.122	inactive
CG11381	2	-1.31	0.426	-1.21	inactive
Pi3K21B	1	-0.1	0.524	0.0654	inactive
CG1647	1	-1.11	0.202	-2.1	inactive
Prosalpha7 (Proteasome alpha7 subunit)	1	1.06	-2.05	2.32	inactive
Prosalpha7 (Proteasome alpha7 subunit)	2	2.6	1.71	2.11	active
Gyc88E (Guanylyl cyclase at 88E)	1	0.347	-1.13	-1.99	inactive
aru (arouser)	1	0.81	0.236	0.231	inactive
aru (arouser)	2	0.345	-0.482	0.146	inactive
Brd (Bearded)	1	0.294	-1.02	0.206	inactive
Brd (Bearded)	2	-0.389	0.447	0.413	inactive
Polr2C (RNA polymerase II subunit C)	1	1.24	-0.398	-10.6	inactive
Polr2C (RNA polymerase II subunit C)	2	0.933	1.56	0.844	inactive
CG9970	1	-0.758	-1.03	-0.406	inactive
gdl + gdl-ORF39	1	-2.64	-0.744	-0.29	inactive
CG17440 + Cfp1	1	-0.379	-0.572	-0.925	inactive
spoon (spoonbill)	1	-0.62	0.228	0.304	inactive
spoon (spoonbill)	2	-0.157	0.754	-0.91	inactive
CG8112	1	0.349	0.607	-0.365	inactive
Pp2B-14D (Protein phosphatase 2B at 14D)	1	1.98	0.823	0.471	inactive
Pp2B-14D (Protein phosphatase 2B at 14D)	2	-2.9	-3.56	0.54	active
Hus1-like	1	0.465	-2.29	0.0375	inactive
CG11601	1	0.683	0.561	-0.2	inactive
Nepl8 (Neprilysin-like 8)	1	-0.0356	1.64	-5.8	inactive
Ate1 (Arginyltransferase 1)	1	0.387	0.811	-3.65	inactive
Ate1 (Arginyltransferase 1)	2	1.2	-1.63	0.412	inactive
Cyp4d14 (Cytochrome P450 4d14)	1	0.243	-1.62	-0.0673	inactive
Cyp4d14 (Cytochrome P450 4d14)	2	0.65	-0.604	0.725	inactive
CG1827	1	-1.94	-0.355	-0.0981	inactive
CG7824	1	-3.31	0.856	1.2	inactive
Nlg3 (Neuroligin 3)	1	-5.67	0.84	1.25	inactive
Nlg3 (Neuroligin 3)	2	0.742	-8.87	0.027	inactive
Nlg3 (Neuroligin 3)	3	0.85	0.489	1.25	inactive
Nlg3 (Neuroligin 3)	4	0.14	-0.0581	-0.15	inactive
Ccdc85	1	0.00639	-6.86	-0.181	inactive
Arl6 (ADP ribosylation factor-like 6)	1	-0.362	-1.16	0.074	inactive
Arl6 (ADP ribosylation factor-like 6)	2	-0.646	0.384	-3.17	inactive

5 entries already listed, ordered by “Wolbachia per cell robust z, rep 1”, highest first.
Gene	dsRNA no.	Wolbachia per cell robust z, rep 1	Wolbachia per cell robust z, rep 2	Wolbachia per cell robust z, rep 3	Call
nullo	1	0.529	0.109	-0.159	inactive
nullo	2	0.115	1.03	1.16	inactive
CG10874	1	0.112	0.429	0.757	inactive
CG10874	2	-0.976	-0.704	-1	inactive
flfl (falafel)	1	-2.83	1.04	-5.51	active
